Anti-infective test results gathered from many reports (values: NIAID ChemDB through PubChem).

Shared fields: enzyme or target tests; species: HIV-1; target: gp120; endpoint: IC50

An empty or dashed field is not shown.

smiles,strain,read by,value
O=C(O)c1cc[c]([Sb](=[O])([OH])[OH])cc1[N+](=O)[O-],-,ELISA,1.75 µM
O=c1c(O[C@@H]2O[C@H](CO)[C@@H](O)[C@H](O)[C@H]2O)c(-c2ccc(O)cc2)oc2cc(O)cc(O)c12,-,binding,~70 µg/mL
CC[C@H](C)/C=C(C)/C=C/C1=CC2=C(Cl)C(=O)[C@@]3(C)OC(=O)C(C(C)=O)=C3C2=CO1,-,ELISA,>300 µM
CCN(CCCl)CC1CC(c2ccccc2)(c2ccccc2)C(=O)O1,-,ELISA,35 µM
O=C1c2c(O)cc(O[C@@H]3C[C@@H](O)[C@H](O)[C@@H](CO)O3)cc2O[C@H](c2ccc(O)c(O)c2)[C@H]1O,-,ELISA,>50 µg/mL
CC[C@H](C)C[C@H](C)C(=O)O[C@@]1(C)C(=O)C2=COC(/C=C/C(=O)O)=CC2=C(Cl)C1=O,-,ELISA,>260 µM
Cc1ccc(-c2ccc3c(c2)C=C(C(=O)Nc2ccc(C[N+](C)(C)C4CCOCC4)cc2)CCC3)cc1,JR-FL,antigen,>10 µM
O=S(=O)(O)c1cc(S(=O)(=O)O)c2c(Nc3ccnc4cc(Cl)ccc34)ccc(S(=O)(=O)O)c2c1,-,binding,>1000 µg/mL
CC[C@H](C)/C=C(C)/C=C/C1=CC2=C(Cl)C(=O)[C@](C)(OC(C)=O)C(=O)C2=CO1,-,-,>100 µg/mL
O=C(O[C@@H]1Cc2c(O)cc(O)cc2O[C@@H]1c1cc(O)c(O)c(O)c1)c1cc(O)c(O)c(O)c1,-,fluorescence,<100 µM
CC[C@H](C)/C=C/C1=CC2=C(Cl)C(=O)[C@@]3(C)OC(O)(C(C)C(C)O)C(C(C)=O)C3C2=CO1,-,ELISA,140 µM
O=C1C[C@@H](c2cc(O)ccc2O)Oc2cc(O[C@@H]3C[C@@H](O)[C@H](O)[C@@H](CO)O3)cc(O)c21,-,ELISA,>16 µg/mL
COC(=O)C(=O)N1CC[C@@H](/C=C/C(Cc2ccccc2)C(=O)OCc2ccccc2)C1,-,ELISA,>1000 µg/mL
CN1C(=O)C(c2cc(Cl)c(O)c(Cl)c2)NC(=O)[C@@H]2NC(=O)C(c3cc(Cl)c(O)c(Cl)c3)NC(=O)[C@H](NC(=O)C(=O)c3cc(Cl)c(O)c(Cl)c3)Cc3c[nH]c4c(cccc34)-c3cc2cc(c3O)Oc2ccc(cc2)CC1C(=O)NC(C(=O)O)c1ccc(O)cc1,-,ELISA,2 µM
CC[C@H](C)/C=C(C)/C=C/C1=CC2=C(Cl)C3=C(C(C)=O)C(=O)O[C@@]3(C)C(=O)C2=CO1,-,ELISA,>240 µM
CCCCCCCCCCCC(=O)N(CCCCCCCCCCC(=O)O)CC(O)C(O)C(O[C@@H]1O[C@H](CO)[C@H](O)[C@H](O)[C@H]1O)C(O)CO,-,radiometric,9.4 µM
O=C(C=Cc1ccc(O)c(O)c1)O[C@@H]1C[C@](O)(C(=O)O)C[C@@H](O)[C@H]1O,-,ELISA,<400 µg/mL
CC[C@H](C)/C=C(C)/C=C/C1=CC2=C(Cl)C(=O)[C@](C)(OC(C)=O)C(=O)C2=CO1,-,ELISA,>250 µM
COC(=O)C(=O)OC1(C(=O)O)C[C@@H](OC(=O)/C=C/c2ccc(O)c(O)c2)C(O)[C@H](OC(=O)/C=C/c2ccc(O)c(O)c2)C1,LAI,binding,>97 µM
COc1ccc(C[C@H]2COC(=O)[C@]2(O)Cc2ccc(O)c(O)c2)cc1OC,-,ELISA,~50 µM
O=C1c2c(O)cc(O)c(O)c2O[C@H](c2ccc(O)cc2)[C@H]1O,-,ELISA,>50 µg/mL
O=C(CO)N[C@@H]([C@@H](O)[C@H](O)[C@H](O)CO)[C@@H](O)C(=O)C(=O)O,MN,-,<80 µM
CC[C@H](C)C=C(C)/C=C/C1=CC2=C(Cl)C(=O)[C@](C)(O)[C@H](CC(C)=O)C2=CO1,-,-,1.51 µg/mL

A second listing of 2 rows from above:

smiles,strain,read by,value
Cc1ccc(-c2ccc3c(c2)C=C(C(=O)Nc2ccc(C[N+](C)(C)C4CCOCC4)cc2)CCC3)cc1,JR-FL,antigen,>10 µM
O=C(O[C@@H]1Cc2c(O)cc(O)cc2O[C@@H]1c1cc(O)c(O)c(O)c1)c1cc(O)c(O)c(O)c1,-,fluorescence,<100 µM

ICn is the concentration giving n% inhibition. Rows are shuffled and stem from different studies.